The source of these data is patent publication EP0706514B1, “COMPOUNDS AND METHODS FOR INHIBITION OF HIV AND RELATED VIRUSES” (MEDIVIR AB, priority 1993, dated 1995).

Each structure is given as a SMILES string.

This experiment concerns HIV virus. Nature of the experiment: Test A (XTT): reduction of virus-induced cytotoxicity in MT4 cells. It is filed as cell-based. The conditions noted are these: for % inhibition: Test A. As for the experimental part: Tests A, B, C, and D (XTT)
MT4 cells in a medium of RPMI 1640, 5% FCS, penicillin/streptomycin are adjusted to 2x10^5 cells/ml and seeded into microplates (96 wells/plate) […] cell suspension/well giving 2x10^4 cells/well. The compound to be tested is made into a 10 mg/ml mixture in DMSO and stored at -20°C. […] Further dilutions to […] are made in medium containing microplates. Fifty […] of the 400, 40, and 4 mg/ml are transferred to the cell-containing microplates with a multi-channel pipette (final concentration: […]). Finally, […] of virus suspension is added to each well (with a repetitive "Eppendorf" multipipett). […] The plate is put into a plastic bag and incubated for six days in CO2 atmosphere. To each well in the plate is added […] of XTT ((2,3-bis[2-methoxy-4-nitro-5-sulfophenyl]-5-[(phenylamin o)carbonyl]-2H-tetrazolium hydroxide), (1 mg/ml 0.01-0.02 mM N-metyl-phenazonium methosulfate). After six hours of incubation in CO2 atmosphere the plates are covered with adhesive plate sealers and gently mixed on a vortex. Optical densities are determined at a wavelength of 450 nm and a reference wavelength of 650 nm. The percent reduction of cytotoxocity caused by the virus infection is calculated as follows: (OD450 compound - OD450 inf cells)/(OD450 uninf cells - OD450 inf cells)x 100 [formula]
Background: Formazan colour is commonly taken as a measure of viable cells.

Consider `CCOc1ccc(F)c(CCNC(=O)Nc2ccc(Br)cn2)c1Cl`, for which the inhibition at 10 µg/mL (Human immunodeficiency virus 1, MT4, Test A, 10 µg/ml) is 83%. The “% inhibition” value runs as follows: (0.01 µg/ml) 82%; (0.1 µg/ml) 89%.

Broadly, the inhibition is the percentage by which the read-out fell short of the control. One may read the % inhibition as the percentage by which the read-out fell short of the control. High values mean strong suppression, low ones little suppression.
